Results of unrelated studies side by side (data: NIAID ChemDB).

Shared fields: growth or infection tests; agent: Hepatitis C virus; read by: replicon; measure: EC50

ECn: concentration that inhibits the pathogen or its effect by n%.

| compound | conditions | cells | strain or isolate | value |
|---|---|---|---|---|
| NC(=S)NCc1ccc(OCc2ccc(-c3ccccc3)cc2)cc1 | - | Huh7 | - | <1 µM |
| C=C[C@@H]1C[C@]1(NC(=O)[C@@H]1C[C@@H](Oc2cc(-c3ccccc3)nc3cc(OC)ccc23)CN1C(=O)[C@@H](NC(=O)OC(C)(C)C)C(C)(C)C)C(=O)NS(=O)(=O)c1cccc(Cl)c1 | - | Huh7 | 1b | <0.5 µM |
| C=C[C@@H]1C[C@]1(NC(=O)[C@@H]1C[C@@H](Oc2nc(-c3ccccc3)cs2)CN1C(=O)[C@@H](NC(=O)OC(C)(C)C)C(C)(C)C)C(=O)NS(=O)(=O)C1CC1 | - | Huh7 | BMS | 1–10 µM |
| CNC(=O)c1c(-c2ccc(F)cc2)oc2cc(N(C)S(C)(=O)=O)c(OCc3cc(C)on3)cc12 | - | Huh7 | - | <1 µM |
| NC(=S)NCc1ccc(Oc2ccccc2)cc1 | - | Huh7 | - | <1 µM |
| CC1CCC(C(=O)N(c2cc(-c3ccc(NC(=O)c4ccoc4)cc3)sc2C(=O)O)C(C)C)CC1 | - | - | 1b | <0.5 µM |
| Cc1cc(NC(N)=S)ccc1N1CCCCC1 | - | Huh7 | - | <1 µM |
| CCn1ccc(C(=O)Nc2ccc(-c3cc(N(C(=O)C4CCC(C)CC4)C(C)C)c(C(=O)O)s3)cc2)n1 | - | - | 1a | <0.5 µM |
| C[C@H](Oc1cccc(NC(N)=S)c1)c1ccccc1 | - | Huh7 | - | <1 µM |
| C=CC[C@](C)(NC(=O)[C@H]1C[C@@H](Oc2nccc3sccc23)CN1C(=O)[C@@H](NC(=O)OC(C)(C)C)C(C)(C)C)C(=O)NS(=O)(=O)C1CC1 | - | Huh7 | BMS | 0.1–1 µM |
| CCCCOC(=O)C1(c2ccccc2)CCN(c2cccc(NC(N)=S)c2)CC1 | - | Huh7 | - | <1 µM |
| NC(=O)c1ncc(Cn2c(C(=O)O)c(-c3ccc[nH]c3=O)c3c4occc4c(F)cc32)s1 | - | - | - | 0.5–1.5 µM |
| CN(C)C(=O)N1CCn2c(c(C3CCCCC3)c3ccc(C(=O)NS(=O)(=O)N(C)C)cc32)-c2ccccc21 | - | Huh7 | - | 0.01–1 µM |
| CNC(=O)c1c(-c2ccc(F)cc2)oc2cc(-c3c(C)noc3C)c(OCc3cc(C)on3)cc12 | - | Huh7 | - | <1 µM |
| CC1CCC(C(=O)N(CC(F)(F)F)c2cc(-c3ccc(NC(=O)c4cscn4)cc3)sc2C(=O)O)CC1 | - | - | 1a | <0.5 µM |
| C=C[C@H]1C[C@@]1(NC(=O)[C@@H]1C[C@@H](Oc2nccc3cc(OC)ccc23)CN1C(=O)[C@@H](NC(=O)OC(C)C)C(C)(C)C)C(=O)NS(=O)(=O)C1CC1 | - | Huh7 | BMS | 0.1–1 µM |
| CNC(=O)c1ccc(F)c(Cn2c(C(=O)O)c(-c3ccc[nH]c3=O)c3c4occc4c(F)cc32)c1 | - | - | - | <0.5 µM |
| NC(=O)COc1ccc2c(c1)S(=O)(=O)N=C(c1c(O)c3cc(F)ccc3n(CCC3CC3)c1=O)N2 | - | - | 1a 42134 | 0.15 µM |
| O=C(O)c1ccc2c(C3CCCCC3)c3n(c2c1)CCCc1cc(O)ccc1-3 | - | Huh7 | - | 0.01–1 µM |
| CC1C=C(F)C(Cn2c(C(=O)O)c(-c3ccc[nH]c3=O)c3c4occc4c(F)cc32)=CC1=O | - | - | - | <0.5 µM |
| CNC(=O)c1c(-c2ccc(F)cc2)oc2ccc(OCc3cccc(C(=O)O)c3)cc12 | - | Huh7 | - | >30 µM |
| C=C[C@@H]1C[C@]1(NC(=O)[C@@H]1C[C@@H](Oc2cc(-c3ccccc3)nc3cc(OC)ccc23)CN1C(=O)[C@@H](NC(=O)OC(C)(C)C)C(C)(C)C)C(=O)NS(=O)(=O)c1ccccc1C | - | Huh7 | 1b | <0.5 µM |
| CS(=O)(=O)NC(=O)c1ccc2c(C3CCCCC3)c3n(c2c1)CC=Cc1ncccc1-3 | - | Huh7 | - | >10 µM |
| CC(C)N(C(=O)C1CCC(C)(F)CC1)c1cc(-c2ccc(NC(=O)c3cscn3)cc2)sc1C(=O)O | - | - | 1b | <0.5 µM |
| O=C(O)/C=C/c1ccc(NC(=O)C2(NC(=O)c3ccc4c(C5CCCCC5)c5n(c4c3)CC=Cc3ccccc3-5)CCCC2)cc1 | - | Huh7 | - | 0.01–1 µM |
| NC(=S)Nc1ccc(N2CCCC3CCCCC32)cc1 | - | Huh7 | - | <1 µM |
| CN(C)S(=O)(=O)NC(=O)c1ccc2c(C3CCCCC3)c3n(c2c1)CC(C(=O)N1CCNCC1)=Cc1ccccc1-3 | - | Huh7 | - | 0.01–1 µM |
| CNC(=O)c1c(-c2ccc(F)cc2)oc2cc(N(C)S(C)(=O)=O)c(OCc3ncc[nH]3)cc12 | - | Huh7 | - | <1 µM |
| C=C[C@@H]1C[C@]1(NC(=O)[C@@H]1C[C@@H](Oc2cc(-c3ccccc3)nc3cc(OC)ccc23)CN1C(=O)[C@@H](NC(=O)OC(C)(C)C)C(C)(C)C)C(=O)NS(=O)(=O)CC1CCC1 | - | Huh7 | 1b | <5 µM |
| CC1CCC(C(=O)N(CC(F)F)c2cc(-c3ccc(NC(=O)c4cscn4)cc3)sc2C(=O)O)CC1 | - | - | 1b | <0.5 µM |
| CNC(=O)c1c(-c2ccc(F)cc2)oc2cc(C(=O)CO)c(OC)cc12 | - | Huh7 | - | <10 µM |
| CCOC(=O)/C=C/c1ccc(NC(=O)C2(NC(=O)c3ccc4c(C5CCCCC5)c5n(c4c3)C(OC)c3ccccc3-5)CCCC2)cc1 | - | Huh7 | - | 1–10 µM |
| C=CC1CC1(NC(=O)[C@@H]1C[C@@H](Oc2cc(-c3ccccc3)nc3cc(OC)ccc23)CN1C(=O)[C@@H](NC(=O)OC(C)(C)C)C(C)(C)C)C(=O)NS(C)(=O)=O | - | Huh7 | 1b | <0.5 µM |
| Cc1nc(C(=O)Nc2ccc(-c3cc(N(C(=O)C4CCC(C)CC4)C(C)C)c(C(=O)O)s3)cc2)cs1 | - | - | 1b | <0.5 µM |
| CNC(=O)c1c(-c2ccc(F)cc2)oc2cc(C(C)(O)CN)c(OC(C)C)cc12 | - | Huh7 | - | <30 µM |
| O=C(O)c1ccc2c(C3CCCCC3)c3c4ccccc4[nH]c(=O)n3c2c1 | - | Huh7 | - | >10 µM |
| CS(=O)(=O)NC(=O)c1c(-c2ccc[nH]c2=O)c2c3occc3c(F)cc2n1Cc1csc(C(N)=O)c1 | - | - | - | <0.5 µM |
| C=C[C@@H]1C[C@]1(NC(=O)[C@@H]1C[C@@H](Oc2cc(-c3ccccc3)nc3cc(OC)ccc23)CN1C(=O)[C@@H](NC(=O)OC(C)(C)C)C(C)(C)C)C(=O)NS(=O)(=O)c1cccc([N+](=O)[O-])c1 | - | Huh7 | 1b | <50 µM |
| COc1nc(N)nc2c1ncn2[C@@H]1O[C@H](COP(=O)(N[C@@H](C)C(=O)OC(C)C)Oc2ccccc2)[C@@H](O)[C@@]1(C)F | 132 d | - | 2a | 0.22 µM |
| C=CC[C@](C)(NC(=O)[C@H]1C[C@@H](Oc2cnc3ccccc3n2)CN1C(=O)[C@@H](NC(=O)OC(C)(C)C)C(C)(C)C)C(=O)NS(=O)(=O)C1CC1 | - | Huh7 | BMS | 0.1–1 µM |
| O=C(NS(=O)(=O)C1CC1)c1c(-c2ccc[nH]c2=O)c2c3occc3c(F)cc2n1Cc1cc2[nH]cnc2cc1Cl | - | - | - | <0.5 µM |
| CCN(c1cc2oc(-c3ccc(F)cc3)c(C(=O)NC)c2cc1OC)S(C)(=O)=O | - | Huh7 | - | <1 µM |
| CCOC(=O)N[C@H](C(=O)N1C[C@H](Oc2cc(-c3ccccc3)nc3cc(OC)ccc23)C[C@H]1C(=O)N[C@]1(C(=O)NS(=O)(=O)C2CC2)C[C@H]1CC)C(C)C | - | Huh7 | 1b | <0.5 µM |
| CCS(=O)(=O)NC(=O)c1c(-c2ccc[nH]c2=O)c2c3occc3ccc2n1Cc1cc(F)ccc1F | - | - | - | <0.5 µM |
| C=CC[C@](C)(NC(=O)[C@H]1C[C@@H](Oc2nccc3c(SCCC)c(OCC)ccc23)CN1C(=O)[C@@H](NC(=O)OC(C)(C)C)C(C)(C)C)C(=O)NS(=O)(=O)C1CC1 | - | Huh7 | BMS | <0.1 µM |
| CCN(C(=O)C1CCC(C)CC1)c1cc(-c2ccc(NC(=O)c3cscn3)cc2)sc1C(=O)O | - | - | 1a | <0.5 µM |
| C=CC[C@](C)(NC(=O)[C@H]1C[C@@H](Oc2nc(Br)c(OC)c3ccccc23)CN1C(=O)[C@@H](NC(=O)OC(C)(C)C)C(C)(C)C)C(=O)NS(=O)(=O)C1CC1 | - | Huh7 | BMS | <0.1 µM |
| NC(=S)NCc1ccc(OCc2ccccc2)cc1 | - | Huh7 | - | <1 µM |
| C=CC[C@](C)(NC(=O)[C@H]1C[C@@H](Oc2nc3c(c4ccccc24)OCOC3)CN1C(=O)[C@@H](NC(=O)OC(C)(C)C)C(C)(C)C)C(=O)NS(=O)(=O)C1CC1 | - | Huh7 | BMS | <0.1 µM |
| O=C(O)c1c(-c2ccc[nH]c2=O)c2c3occc3c(F)cc2n1Cc1ccc2nc[nH]c2c1 | - | - | - | <0.5 µM |
| C=CC[C@](C)(NC(=O)[C@H]1C[C@@H](Oc2cc(C(F)(F)F)nc3ccc(F)cc23)CN1C(=O)[C@@H](NC(=O)OC(C)(C)C)C(C)(C)C)C(=O)NS(=O)(=O)C1CC1 | - | Huh7 | BMS | 0.1–1 µM |
| O=C(O)c1c(-c2ccc[nH]c2=O)c2c3c(ccc2n1Cc1cc(F)ccc1F)OC(F)(F)O3 | - | - | - | >1.5 µM |
| C=C[C@@H]1C[C@]1(NC(=O)[C@@H]1C[C@@H](Oc2nccc3cc(OC)ccc23)CN1C(=O)[C@@H](NC(=O)OC(C)(C)C)C(C)(C)C)C(=O)NS(=O)(=O)C1CCC1 | - | Huh7 | BMS | <0.1 µM |
| CS(=O)(=O)NC(=O)c1c(-c2ccc[nH]c2=O)c2c3occc3ccc2n1Cc1cc2ccccc2nc1Cl | - | - | - | <0.5 µM |
| NC(=S)Nc1cccc(OC2Cc3ccccc3C2)c1 | - | Huh7 | - | <1 µM |
| CC1CCC(C(=O)N(c2cc(-c3ccc(NC(=O)c4cnccn4)nc3)sc2C(=O)O)C(C)C)CC1 | - | - | 1b | <0.5 µM |

The first 6 rows once more:

compound,conditions,cells,strain or isolate,value
NC(=S)NCc1ccc(OCc2ccc(-c3ccccc3)cc2)cc1,-,Huh7,-,<1 µM
C=C[C@@H]1C[C@]1(NC(=O)[C@@H]1C[C@@H](Oc2cc(-c3ccccc3)nc3cc(OC)ccc23)CN1C(=O)[C@@H](NC(=O)OC(C)(C)C)C(C)(C)C)C(=O)NS(=O)(=O)c1cccc(Cl)c1,-,Huh7,1b,<0.5 µM
C=C[C@@H]1C[C@]1(NC(=O)[C@@H]1C[C@@H](Oc2nc(-c3ccccc3)cs2)CN1C(=O)[C@@H](NC(=O)OC(C)(C)C)C(C)(C)C)C(=O)NS(=O)(=O)C1CC1,-,Huh7,BMS,1–10 µM
CNC(=O)c1c(-c2ccc(F)cc2)oc2cc(N(C)S(C)(=O)=O)c(OCc3cc(C)on3)cc12,-,Huh7,-,<1 µM
NC(=S)NCc1ccc(Oc2ccccc2)cc1,-,Huh7,-,<1 µM
CC1CCC(C(=O)N(c2cc(-c3ccc(NC(=O)c4ccoc4)cc3)sc2C(=O)O)C(C)C)CC1,-,-,1b,<0.5 µM

Rows are shuffled and stem from different studies. An empty or dashed field is not shown. Two numbers with a dash give a range or band.